Measured values published in publication PMC7517352 (Frontiers in Microbiology, 2020).
Several values for one entry are separate records, joined by “and”; a condition that tells them apart may be missing. Equal values may be shown once.

B1: VapB4 antitoxin (Rv0596c) (natural protein)
chain: MSATIPARDLRNHTAEVLRRVAAGEEIEVLKDNRPVARIVPLKRRRQWLPAAEVIGELVRLGPDTTNLGEELRETLTQTTDDVRW
B2: VapB21 antitoxin (Rv2758c), individually purified from pET15b (natural protein)
chain: MHRGYALVVCSPGVTRTMIDIDDDLLARAAKELGTTTKKDTVHAALRAALRASAARSLMNRMAENATGTQDEALVNAMWRDGHPENTA
B3: VapB26 antitoxin (Rv0581) (natural protein)
chain: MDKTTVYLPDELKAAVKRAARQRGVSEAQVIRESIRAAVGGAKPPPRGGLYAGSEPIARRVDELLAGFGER
B4: VapB32 antitoxin (Rv1113) (natural protein)
chain: MRTTVTVDDALLAKAAELTGVKEKSTLLREGLQTLVRVESARRLAALGGTDPQATAAPRRRTSPR
B5: VapC21 toxin (Rv2757c), individually purified from pET15b (enzyme)
chain: MTTRYLLDKSAAYRAHLPAVRHRLEPLMERGLLARCGITDLEFGVSARSREDHRTLGTYRRDALEYVNTPDTVWVRAWEIQEALTDKGFHRSVKIPDLIIAAVAEHHGIPVMHYDQDFERIAAITRQPVEWVVAPGTA
B6: VapB3 antitoxin (Rv0550c) (natural protein)
chain: MLSRRTKTIVVCTLVCMARLNVYVPDELAERARARGLNVSALTQAAISAELENSATDAWLEGLEPRSTGARHDDVLGAIDAARDEFEA

biological target: VapC21 toxin (Rv2757c), individually purified from pET15b (M. tuberculosis) (UniProt P9WF91); test: SEC-MALS

Molecule | stoichiometry N (antitoxin per toxin (2:2))
C-terminal VapB21 peptide (residues 69–108) | 1

Biological target: the molecule itself
Test: SEC-MALS

Molecule | stoichiometry N
B1 | 2
B2 | 2
B3 | 2
B4 | 2
B5 | 2
B6 | 2

biological target: B5; test: SEC-MALS

Molecule | stoichiometry N
B1 | 1 antitoxin per toxin (2:2)
B3 | 1 antitoxin per toxin (2:2)
B4 | 1 antitoxin per toxin (2:2) and 1 antitoxin per toxin (4:4)

biological target: B5; test: SPR

Molecule | Kd | koff | kon
B1 | 73 nM | 0.0014 s⁻¹ | 39000 M⁻¹ s⁻¹
B2 | 3 nM | 0.00038 s⁻¹ | 410000 M⁻¹ s⁻¹
B3 | 53 nM | 0.00069 s⁻¹ | 16000 M⁻¹ s⁻¹
B4 | 18 nM | 0.002 s⁻¹ | 130000 M⁻¹ s⁻¹
